The source of these data is patent US8188011B1, “Optimization of ligand affinity for RNA targets using mass spectrometry” (Isis Pharmaceuticals, Inc., priority 2000, dated 2012).

For this data set, the system named is 16S ribosomal RNA fragment (27mer RNA, SEQ ID NO:1). The data set is described as follows: Collisionally activated dissociation (CAD) MS/MS of ligand:16S complexes, LCQ ion trap.

For `N[C@@H]1C[C@H](N)[C@@H](O)C(O)[C@H]1O` (stereo partly shown) [2-DOS, 2-deoxystreptamine], the “E50 (voltage yielding 50% dissociation) of 2-DOS:16S complex” value (CAD of ions at m/z 1758.9) amounted to 1.13 V. In addition, the “E50 of bis-(2-DOS):16S complex” value (CAD of ions at m/z 1791.4) came to 1.13 V. Further, where the note is “MS/MS/MS experiment”, the “E50 of (2-DOS):16S complex generated from bis-(2-DOS):16S complex” value came to 1.17 V and the “voltage at which complete dissociation of (2-DOS):16S ions generated from bis-(2-DOS):16S complex occurred” value is listed as 1.3 V.
